Two molecules from US20250002564A1, “MODIFIED MULTABODY CONSTRUCTS, COMPOSITIONS, AND METHODS” (HOSPITAL FOR SICK CHILDREN, published 2025) can be followed below.

Like-named read-outs stand apart in the source and are kept apart here.

Test [1] deals with T1, SARS-CoV-2 receptor binding domain (RBD), wild type, His-tagged (SARS-CoV-2, UniProt P0DTC2 319-541).
T1 construct: domain: RBD; also called His-tagged RBD; BEI NR52309
Briefly: method and format not given.

In test [2] the target is T1, SARS-CoV-2 receptor binding domain …. Briefly: method and format not given. The source holds these as a separate data set.

B1: mAb 298 (antibody, V domains shown)
VH: QVQLVQSGAEVKKPGASVKVSCKASGGTFSTYGISWVRQAPGQGLEWMGWISPNSGGTDLAQKFQGRVTMTRDTSTSTVYMELSSLRSEDTAVYYCASDPRDDIAGGYWGQGTLVTVSS
VL: not shown
notes: also called IgG 298; Antibody 298
Broadly, the Kd is a measure of binding affinity in units of concentration. Read a low Kd as tighter binding. For the molecule B1, binding in test [1] was characterised by a dissociation constant (Kd) of 24 nM. In other words, the double-digit nanomolar range.

B2: mAb 80 (antibody, V domains shown)
VH: QVQLVQSGAEVKKPGSSVKVSCKASGGTFNRYAFSWVRQAPGQGLEWMGGIIPIFGTANYAQKFQGRVTITADESTSTAYMELSSLRSEDTAVYYCARSTRELPEVVDWYFDLWGRGTLVTVSS
VL: DIVMTQSPDSLAVSLGERATINCKSSQSVLYSSNNKNYLAWYQQKPGQPPKLLIYWASTRESGVPDRFSGSGSGTDFTLTISSLQAEDVAVYYCQQYYSAPLTFGGGTKVEIKR
notes: also called IgG 80; Antibody 80
As for B2, the Kd in test [2] worked out at 142 nM.
